Measured values reported in paper PMC11964921 (npj Drug Discovery, 2025).

How the values were obtained:
[1] = target: M. smegmatis cytochrome bc^Mtb-like QcrA^L349W (Mycolicibacterium smegmatis, UniProt A0R052+I7GD61, D309E/F156Y/I182M/I312A/L349W/M189L); assay: biochemical
[2] = system: M. smegmatis cytochrome bc^Mtb-like QcrA^L349W; assay: biochemical
[3] = target: T1, M. smegmatis cytochrome bc^Mtb-like QcrB^A312V (Mycolicibacterium smegmatis, UniProt A0R051+A0R052, D309E/F156Y/I182M/I312V/M189L)
[4] = target: T2, M. smegmatis cytochrome bc^Mtb-like QcrB^M337V (Mycolicibacterium smegmatis, UniProt A0R051+A0R052, D309E/F156Y/I182M/I312A/M189L/M337V)
[5] = target: M. smegmatis cytochrome bc^Mtb-like (Mycolicibacterium smegmatis, UniProt A0R051+A0R052, D309E/F156Y/I182M/I312A/M189L); assay: biochemical
[6] = target: T1, M. smegmatis cytochrome bc^Mtb-like QcrB^A312V; assay: biochemical
[7] = target: T2, M. smegmatis cytochrome bc^Mtb-like QcrB^M337V; assay: biochemical

Question: With `CCc1nc2ccc(Cl)cn2c1C(=O)NCc1ccc(C2CC3(C2)CN(S(=O)(=O)C(F)(F)F)C3)cc1` [JNJ-2901] as the molecule, how does the IC50 [1] read?
Answer: The IC50 was 98 nM.

Question: What about the “fold increase in IC50 compared to wild-type protein” value (“fold increase in IC50” below) [2] of the same molecule?
Answer: The value was 5 fold.

Question: And the “fold increase in IC50” value [3]?
Answer: The value was over 700 fold.

Question: What about the “fold increase in IC50” value [4] of the same molecule?
Answer: Its value is over 700 fold.

Question: What about the IC50 ([5]; IC50 oxygen consumption) of the same molecule?
Answer: Its IC50 is 19 nM.

Question: And the IC50 ([5]; IC50 oxygen consumption rate)?
Answer: Its IC50 is 17.4 nM.

Question: What about the IC50 [6] of the same molecule?
Answer: Its IC50 is 23800 nM.

Question: And the IC50 [7]?
Answer: The IC50 was 12900 nM.

Question: `CCc1nc2ccc(Cl)cn2c1C(=O)NCc1ccc(N2CCC(c3ccc(OC(F)(F)F)cc3)CC2)cc1` [Q203] was tested. Which IC50 ([5]; IC50 oxygen consumption rate) did it give?
Answer: The IC50 was 22.4 nM.
